Values from PubChem BioAssay AID1224833 (University of Georgia, 2016).

- Test: 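Host factors restraining rotavirus as candidate antiviral genes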 (primary screen)
- Cell system: monkey MA104 kidney cells
- Reagent: siRNA pool against human genes, 50 nM
- Duration: 48 h knock-down before infection; read 24 h after infection
- Challenge: infection with rotavirus strain RV3 two days after transfection; infectious dose for this stage not given
- Read-out: 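Rotavirus antigen per well by fluorescent immunoassay, normalised to non-targeting control wells on each plate and given as a standard z-score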
- Reading the numbers: z-score vs non-targeting control: higher = more rotavirus replication than with non-targeting control
- Active means: In these data the active calls have z-score vs non-targeting control at about -1 or lower, or at about 1 or higher
- Meaning of the calls: active = z-score beyond 1 either way; inactive = z-score within 1 of zero
The deposit covers about 12,000 reagents; below is an unselected part. About 5,600 of all reagents (46%) were called active. 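Active calls cover z-scores past 1 in both directions, so they include lowered as well as raised rotavirus replication.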

The first 13 entries as a preview:
gene | z-score vs non-targeting control | activity call
PSMB3 | 2.12 | active
RNASEK | -0.786 | inactive
LCE3D | -2.05 | active
IL21 | -0.212 | inactive
OR2T35 | -2.27 | active
ADAM18 | 1.11 | active
ADAMTS18 | 1.14 | active
TULP2 | -2.07 | active
LDB3 | -1.32 | active
RRP1 | -0.215 | inactive
FOXE1 | -1.3 | active
NR1H3 | -0.927 | inactive
ST6GAL1 | -1.16 | active

The listing, from the first entry:
gene | z-score vs non-targeting control | activity call
PSMB3 | 2.12 | active
RNASEK | -0.786 | inactive
LCE3D | -2.05 | active
IL21 | -0.212 | inactive
OR2T35 | -2.27 | active
ADAM18 | 1.11 | active
ADAMTS18 | 1.14 | active
TULP2 | -2.07 | active
LDB3 | -1.32 | active
RRP1 | -0.215 | inactive
FOXE1 | -1.3 | active
NR1H3 | -0.927 | inactive
ST6GAL1 | -1.16 | active
CAPNS1 | 0.641 | inactive
SOX6 | 0.0415 | inactive
OR13C3 | -1.36 | active
KBTBD7 | 0.423 | inactive
FECH | -1.32 | active
CMTR1 | -0.135 | inactive
CHSY1 | -0.931 | inactive
SBSN | -0.791 | inactive
APMAP | -0.81 | inactive
RERE | -0.53 | inactive
SRSF10 | 2.77 | active
RPS18 | -1.22 | active
TET1 | 0.372 | inactive
IPO13 | -0.199 | inactive
DEFB126 | 3.92 | active
ADGRL3 | -0.98 | inactive
NISCH | -2.15 | active
BPIFB3 | -1.16 | active
TRAPPC12 | 0.449 | inactive
GTPBP10 | 1.02 | active
XKR5 | -1.34 | active
IGSF10 | -0.042 | inactive
ZNF540 | -0.672 | inactive
TRAPPC13 | -1.03 | active
IRX5 | -0.757 | inactive
PARP16 | -0.878 | inactive
KLHDC8B | -0.616 | inactive
KPTN | 0.554 | inactive
BCAS3 | -0.209 | inactive
VEGFB | 1.07 | active
KIF1A | -0.5 | inactive
GORASP2 | -0.806 | inactive
CFL2 | -2.29 | active
MT1X | 0.891 | inactive
DNAAF1 | 1.82 | active
C5orf15 | -1.28 | active
FKBP11 | 0.648 | inactive
MFRP | 0.14 | inactive
CLVS1 | -1.81 | active
CAPN13 | -1.06 | active
EDC3 | 0.973 | inactive
FLVCR2 | -1.23 | active
KYAT1 | -0.681 | inactive
ARHGAP20 | -0.0814 | inactive
TMED2 | 1.26 | active
PDCL3 | 0.385 | inactive
LACRT | 0.0558 | inactive
TMEM270 | 0.723 | inactive
KIN | -0.154 | inactive
EIF1B | 0.9 | inactive
C2orf15 | -2.21 | active
SLC36A3 | -0.549 | inactive
INHBA | 0.862 | inactive
EFS | -0.151 | inactive
CDH7 | -1.03 | active
LGALS9B | -1.09 | active
CFAP107 | 0.46 | inactive
SMS | 0.529 | inactive
SIGMAR1 | -1.25 | active
FAM81A | -1.48 | active
OR5T2 | -1.44 | active
DDX27 | -0.67 | inactive
GH2 | 0.617 | inactive
GNA12 | -1.44 | active
ARRB1 | -1.85 | active
NUP205 | -1.06 | active
CNOT3 | 0.0561 | inactive
ZPR1 | -0.134 | inactive
LIMD1 | 0.502 | inactive
ABCB10 | -1.23 | active
VSX2 | 0.0671 | inactive
TSC22D4 | -0.0202 | inactive
ZXDB | -2.07 | active
KLHL21 | -0.786 | inactive
CLEC4E | 1.73 | active
NUTM1 | -1.46 | active
PPL | -0.851 | inactive
KIF18A | 1.19 | active
WNT8A | 0.17 | inactive
PDGFC | 0.376 | inactive
OR6K6 | -0.496 | inactive
CDH4 | -1.15 | active
GPR37 | 0.685 | inactive
BGLAP | -0.794 | inactive
MLYCD | 0.887 | inactive
CDKN2A | -1.45 | active
MPL | -0.896 | inactive
RARS1 | -0.844 | inactive
MED19 | -0.216 | inactive
RPS3 | -0.0161 | inactive
GCNT7 | 0.0905 | inactive
CALHM5 | -0.0393 | inactive
NTAN1 | 0.739 | inactive
U2AF2 | 1.74 | active
GABBR2 | 1.21 | active
KITLG | -0.206 | inactive
ROPN1 | -2.33 | active
